Anti-infective test results gathered from many reports (values: NIAID ChemDB through PubChem).

Common to all: tests in culture; organism: Rhinovirus; measure: EC50

Rows are shuffled and stem from different studies. An empty or dashed field is not shown. ECn is the concentration giving n% inhibition of infection, replication or growth.

smiles,strain or isolate,cell line,method,result
CO/N=C/c1ccc(OCCCN2CCN(c3ccc(Cl)nn3)CC2)cc1,TYPE 1A,KB,cytopathic effect / visual reading,0.01 µg/mL
CCOC(=O)/C=C/[C@H](C[C@@H]1CCNC1=O)NC(=O)COc1ccc(Cl)c(Cl)c1,Serotype 14,H1-HELA,,6.1 µM
CS(=O)(=O)c1ccc(NCc2ccc(Cl)c(Cl)c2)nc1,TYPE 44,HeLa,cytopathic effect,2.5 µg/mL
CN(C)c1nc(C(F)(F)F)nc2c1ncn2Cc1ccc([N+](=O)[O-])cc1,Serotype 30,M-HELA,plaque count,>8 µM
CCOC(=O)/C=C/[C@H](C[C@@H]1CCNC1=O)NC(=O)[C@H](Cc1ccccc1)NC(=O)[C@@H](NC(=O)COc1ccccc1)C(C)C,Serotype 14,H1-HELA,XTT,0.03 µM
COCc1cc(CCCOc2c(Cl)cc(-c3noc(C)n3)cc2Cl)on1,Serotype 1A,HeLa,cytopathic effect,0.034 µg/mL
CC(C)S(=O)(=O)c1ccc(Cc2ccc(Cl)c(Cl)c2)nc1,TYPE 2,HeLa,cytopathic effect,1.3 µg/mL
CN(C)c1nc(C(F)(F)F)nc2c1ncn2Cc1ccccc1,Serotype 30,M-HELA,plaque count,>8 µM
CCOC(=O)c1ccc(OCCC2CCN(c3ccc(C)nn3)CC2)cc1,CH82 (ICAM-1 receptor group 56),KB,neutral red,0.022 µM
Cc1cc(CCCCCOc2c(Cl)cc(C3=NCCO3)cc2Cl)on1,TYPE 75,HeLa,plaque count,0.07 µg/mL
CSc1nsc(-c2ccc(OCCCCOc3ccc(C#N)cc3)cc2)c1C#N,Serotype 89 (group B),HELA-OHIO,cytopathic effect,>2 µM
Clc1ccc(C2=Cc3ccccc3OC2)cc1,Serotype 1B,M-HELA,cytopathic effect,1.65 µM
CCOC(=O)c1ccc(OCCC2CCN(c3ccc(C)nn3)CC2)cc1,Serotype 2 (group B),HELA-OHIO,cytopathic effect,0.01 µM
Cn1c2ccccc2c2nnc(NCCCO)nc21,2060,WI-38,plaque count,50 µg/mL
Cc1c(-c2ccccc2)n(-c2cccc(F)c2)c2ccc(C(C)C)cc2c1=O,TYPE 1B/B632,HELA-OHIO,cytopathic effect,0.18 µg/mL
CS(=O)(=O)c1ccc(Cc2ccc(Cl)c(Cl)c2)nc1,TYPE 1A,HeLa,cytopathic effect,0.3 µg/mL
CN(C)c1nc(Cl)nc2c1ncn2Cc1ccc(Cl)cc1,Serotype 29,M-HELA,plaque count,>5 µM
CC(=O)Nc1nc2c(CC(O)CO)nc(C)n2c(=O)[nH]1,TYPE 1A,WI-38,cytopathic effect,>400 µg/mL
Clc1ccc(C2COc3ccccc3C2)cc1,Serotype 1B,M-HELA,cytopathic effect,1.64 µM
CNC(=O)/C=C(\c1ccccc1)c1ccc2nc(N)cn2c1,TYPE 14,H-HELA,plaque count,>10 µg/mL
CCO/N=C/c1ccc(OCCC2CCN(c3ccc(C)nn3)CC2)c(C)c1,TYPE 1A,KB,cytopathic effect / visual reading,<0.003 µg/mL
CCOC(=O)/C=C/[C@H](C[C@@H]1CCNC1=O)NC(=O)Nc1cccc2ccccc12,Serotype 14,H1-HELA,XTT,>10 µM
CC(=O)Nc1ccc(Cc2ccc(S(C)(=O)=O)cn2)cc1,TYPE 2,HeLa,cytopathic effect,>10 µg/mL
CCn1c2ccccc2c2nnc(NCCCO)nc21,1059,WI-38,plaque count,45 µg/mL
Cc1nc(-c2cc(C)c(OCCCc3cc(C4CC4)no3)c(C)c2)no1,Serotype 2,HeLa,cytopathic effect,0.009 µg/mL
CCOC(=O)c1ccc(OCCC2CCN(c3ccc(C)nn3)CC2)cc1,Serotype 1A,,,<0.95 µM
Cc1nc(CC(O)CO)c2nc[nH]c(=O)n12,TYPE 9,WI-38,cytopathic effect,≥300 µg/mL
Fc1cccc(Cn2cnc3c(Nc4cccc(F)c4)nc(C(F)(F)F)nc32)c1,Serotype 29,M-HELA,plaque count,12 µM
CNC(=O)/C=C(\c1ccccc1)c1ccc2nc(N)c(-c3ccccc3)n2c1,TYPE 14,H-HELA,cytopathic effect,0.3 µg/mL
CN(C)c1ncnc2c1ncn2Cc1ccc(C#N)cc1,Serotype 1B,M-HELA,plaque count,>50 µM
COC(=O)[C@H](Cc1cccc2ccccc12)Nc1nc2ccc(NC(=O)OC(C)(C)C)c(C)c2c(=O)o1,Serotype 10,H1-HELA,XTT,0.4 µM
CCOc1ccc2nc([C@H](O)[C@@H](O)c3nc4ccc(OCC)cc4[nH]3)[nH]c2c1,Serotype 42,WI-38,cytopathic effect,1 µg/mL
CCOC(=O)/C=C/[C@H](CCC(=O)NC)NC(=O)[C@H](Cc1ccccc1)NC(=O)[C@H](CC(C)C)NC(=O)OCc1ccccc1,Serotype 14,,,1.6 µM
CS(=O)(=O)c1ccc(Cc2ccc(Br)cc2)nc1,TYPE 1A,HeLa,cytopathic effect,0.6 µg/mL
COc1ccc(OC)c2[nH]c([C@H](O)[C@@H](O)c3nc4c(OC)ccc(OC)c4[nH]3)nc12,Serotype 42,WI-38,cytopathic effect,320 µg/mL
CC[C@H]1OC(=O)[C@H](C)[C@@H](O[C@H]2C[C@@](C)(OC)[C@@H](O)[C@H](C)O2)[C@H](C)[C@@H](O[C@@H]2O[C@H](C)C[C@H](N(C)C)[C@H]2O)[C@](C)(O)C[C@@H](C)C(=O)[C@H](C)[C@@H](O)[C@]1(C)O,TYPE 2,Human tracheal epithelial cells,,<10 µM
CN(C)c1ccc(Cn2cnc3c(N(C)C)nc(C(F)(F)F)nc32)cc1,Serotype 3,M-HELA,plaque count,>8 µM
CC(=O)Nc1cccc(Nc2nc(Cl)nc3c2ncn3Cc2ccccc2)c1,Serotype 4,,plaque count,2.8 µM
CO/N=C/c1cc(C)c(OCCC2CCN(c3ccc(Cl)nn3)CC2)c(C)c1,TYPE 2,MRC-5,cytopathic effect / visual reading,0.09 µg/mL
CSc1nsc(-c2ccc(OCCCCOc3ccccc3)cc2)c1C#N,Serotype 2 (group B),HELA-OHIO,cytopathic effect,>20 µM
CN(C)c1nc(C(F)(F)F)nc2c1ncn2Cc1ccc(Cl)cc1Cl,Serotype 13,M-HELA,plaque count,>8 µM
CS(=O)(=O)c1cccc(Oc2ccc(C(=O)c3ccccc3)cc2)n1,TYPE 64,HeLa,cytopathic effect,>10 µg/mL
CCO/N=C/c1ccc(OCCCN2CCN(c3ccc(C)nn3)CC2)cc1,TYPE 1A,KB,cytopathic effect / visual reading,0.05 µg/mL
CS(=O)(=O)c1ccc(Oc2ccc(Cl)c(Cl)c2)nc1,TYPE 32,,cytopathic effect,4.1 µM
COc1ccc2nc([C@@H](O)[C@H](O)c3nc4ccc(OC)cc4[nH]3)[nH]c2c1,Serotype 42,WI-38,cytopathic effect,10 µg/mL
CCOC(=O)/C=C/[C@H](C[C@@H]1CCNC1=O)NC(=O)[C@H](Cc1ccc(F)cc1)NC(=O)[C@@H](NC(=O)c1cc(C)on1)C(C)(C)C,Serotype 13,H1-HELA,XTT,0.03 µM
CCC(CO)Nc1nnc2c3ccccc3n(C)c2n1,1059,WI-38,plaque count,220 µg/mL
CNC(=O)/C=C(\c1ccccc1)c1ccc2nc(N)c(-c3cc(F)ccc3F)n2c1,TYPE 14,H-HELA,plaque count,0.18 µg/mL
Cc1nc(-c2cc(C)c(OCCCc3cc(C(F)(F)F)no3)c(C)c2)no1,Serotype 22,HeLa,cytopathic effect,0.032 µg/mL
COc1ccc2nc([C@H](O)[C@@H](O)c3nc4ccc(OC)cc4[nH]3)[nH]c2c1,Serotype 42,WI-38,cytopathic effect,0.1 µg/mL
CSc1nsc(-c2ccc(OC(C)(C)C)cc2)c1C#N,Serotype 86 (group A),HELA-OHIO,cytopathic effect,7 µM
CN(C)c1nc(C(F)(F)F)nc2c1ncn2Cc1ccc(-c2ccccc2)cc1,TYPE 1B,M-HELA,plaque count,>8 µM
Brc1ccc(C2=Cc3ccccc3OC2)cc1,Serotype 1B,M-HELA,cytopathic effect,2.09 µM
CCn1c2c(c(=O)c3cc(C(C)C)ccc31)Cc1ccccc1-2,21/47,HELA-OHIO,cytopathic effect,0.2 µg/mL
CN(C)c1nc(C(F)(F)F)nc2c1ncn2Cc1ccc(S(C)(=O)=O)cc1,Serotype 15,M-HELA,plaque count,>8 µM
CC(=O)OCCCNc1nnc2c3ccccc3n(C)c2n1,33342,WI-38,plaque count,20 µg/mL
CSc1nsc(-c2ccc(O)cc2)c1C#N,Serotype 9 (group B),HELA-OHIO,cytopathic effect,>10 µM
Nc1ccn([C@@H]2C=C(CO)[C@@H](O)[C@H]2O)c(=O)n1,TYPE 9,WI-38,cytopathic effect,2 µg/mL
Cn1c2ccccc2c2nnc(Nc3ccc(O)cc3)nc21,HGP,WI-38,plaque count,10 µg/mL
Cc1cc(CCCOc2c(C)cc(-c3noc(C(F)(F)F)n3)cc2C)on1,Isolate 5,OHIO HELA-I,cytopathic effect / visual reading,0.08 µg/mL
Clc1ccc2c(c1)C=C(c1ccc(Br)cc1)CO2,Serotype 1B,M-HELA,plaque count,3.24 µM
CSc1nsc(-c2ccc(OS(=O)(=O)c3ccc(C)cc3)cc2)c1C#N,Serotype 51 (group B),HELA-OHIO,cytopathic effect,>25 µM
Cc1c(-c2ccccc2)n(-c2ccc(F)cc2)c2ccc(C(C)C)cc2c1=O,13/353,HELA-OHIO,cytopathic effect,0.12 µg/mL
O=C(c1ccccc1)c1ccc(Oc2ccc(S(=O)(=O)Cc3ccccc3)cn2)cc1,TYPE 2,HeLa,cytopathic effect,>10 µg/mL
CCOC(=O)/C=C/[C@H](C[C@@H]1CCNC1=O)NC(=O)Nc1cc(OC)cc(OC)c1,Serotype 14,H1-HELA,XTT,>10 µM
CSc1nsc(-c2ccc(OCCOc3ccc(C#N)cc3)cc2)c1C#N,Serotype 86 (group A),HELA-OHIO,cytopathic effect,>2 µM
Cn1c2ccccc2c2nnc(NCC(O)CO)nc21,1059,WI-38,plaque count,20 µg/mL
CS(=O)(=O)c1ccc(NCCc2ccc(Cl)cc2)nc1,TYPE 64,HeLa,cytopathic effect,1.6 µg/mL
CSc1nsc(-c2ccc(OCCCCOc3ccc([N+](=O)[O-])cc3)cc2)c1C#N,Serotype 39 (group B),HELA-OHIO,cytopathic effect,>0.5 µM
Cc1cc(CCCOc2c(C)cc(-n3nnc(C)n3)cc2C)on1,Serotype 14,,plaque count,0.12 µg/mL
COc1ccc(Cn2cnc3c(N(C)C)nc(C(F)(F)F)nc32)cc1C,Serotype 30,M-HELA,plaque count,>8 µM
Cc1nc(Cc2ccccc2)c2[nH]c(=S)[nH]c(=O)n12,TYPE 9,WI-38,cytopathic effect,>100 µg/mL
CCOC(=O)c1ccc(OCCC2CCN(c3ccc(C)nn3)CC2)cc1,Serotype 54,WI-38,cytopathic effect,<0.1 µg/mL
CSc1nsc(-c2ccc(OCCOc3ccc([N+](=O)[O-])cc3)cc2)c1C#N,Serotype 63 (group B),HELA-OHIO,cytopathic effect,>2 µM
Cc1cc(CCCOc2c(C)cc(-c3nnn(C)n3)cc2C)on1,Serotype 1,,plaque count,0.03 µg/mL
CS(=O)(=O)c1ccc(Oc2ccc(C(=O)c3ccccc3)cc2)nc1,TYPE 44,HeLa,cytopathic effect,>5 µg/mL
CSc1nsc(-c2ccc(OCCOc3ccccc3)cc2)c1C#N,Serotype 39 (group B),HELA-OHIO,cytopathic effect,>20 µM

10 of the rows above, restated:

smiles,strain or isolate,cell line,method,result
CCOC(=O)c1ccc(OCCC2CCN(c3ccc(C)nn3)CC2)cc1,Serotype 54,WI-38,cytopathic effect,<0.1 µg/mL
CSc1nsc(-c2ccc(OCCOc3ccccc3)cc2)c1C#N,Serotype 39 (group B),HELA-OHIO,cytopathic effect,>20 µM
Cc1cc(CCCOc2c(C)cc(-n3nnc(C)n3)cc2C)on1,Serotype 14,,plaque count,0.12 µg/mL
CCOC(=O)c1ccc(OCCC2CCN(c3ccc(C)nn3)CC2)cc1,Serotype 1A,,,<0.95 µM
COc1ccc2nc([C@H](O)[C@@H](O)c3nc4ccc(OC)cc4[nH]3)[nH]c2c1,Serotype 42,WI-38,cytopathic effect,0.1 µg/mL
CS(=O)(=O)c1ccc(Cc2ccc(Cl)c(Cl)c2)nc1,TYPE 1A,HeLa,cytopathic effect,0.3 µg/mL
CCOC(=O)/C=C/[C@H](C[C@@H]1CCNC1=O)NC(=O)[C@H](Cc1ccccc1)NC(=O)[C@@H](NC(=O)COc1ccccc1)C(C)C,Serotype 14,H1-HELA,XTT,0.03 µM
Cn1c2ccccc2c2nnc(Nc3ccc(O)cc3)nc21,HGP,WI-38,plaque count,10 µg/mL
Cc1cc(CCCOc2c(C)cc(-c3noc(C(F)(F)F)n3)cc2C)on1,Isolate 5,OHIO HELA-I,cytopathic effect / visual reading,0.08 µg/mL
CC(=O)Nc1nc2c(CC(O)CO)nc(C)n2c(=O)[nH]1,TYPE 1A,WI-38,cytopathic effect,>400 µg/mL